Reference: US20040107458A1

Biological target: tomato mosaic tobamovirus (ToMV) 30K movement protein (tomato mosaic tobamovirus)
Assay: cell-based or functional assay

Substance: Tm-2^2 tomato resistance protein (from UniProt Q71BG9 1-861)
- Seeds with necrotic root (germination assay of the cross of Tm-2^2 homozygous plants with MP homozygous line ATV840-4352): 112000 seeds
